Consider one compound from patent publication US10428060B2, “PI-kinase inhibitors with anti-infective activity” (The Board of Trustees of the Leland Stanford Junior …, priority 2011, dated 2019).

The assay deals with Ebola. The assay is described as follows: microbe, parasite or virus in culture. Type of assay: cell-based. The settings on record: Zaire ebolavirus, read-out: Ebola EC50.

The structures appear in SMILES notation.

What is called EC50 is the midpoint of the concentration-response curve. Regarding `COc1ccc(-c2sc(NC(=O)CC3CCOCC3)nc2C)cc1S(=O)(=O)Nc1ccccc1C` [Compound S-228, N-[5-[4-methoxy-3-(o-tolylsulfamoyl)phenyl]-4-methyl-thiazol-2-yl]-2-tetrahydropyran-4-yl-acetamide], the EC50 was 1 to 10 µM.
